Source: publication PMC4271523, “Differential Effects of a Mutation on the Normal and Promiscuous Activities of Orthologs: Implications for Natural and Directed Evolution” (Molecular Biology and Evolution, 2014)

Columns and labels:
[1] = test system: CC(=O)N[C@@H](CCC=O)C(=O)O; assay: purified protein; conditions: 1 mM NADP+, 100 mM potassium phosphate pH 7.6, room temperature, reverse (dehydrogenase) direction, promiscuous substrate, apparent KM, NAGSA in equilibrium with its hydrate
[2] = test system: N[C@@H](CCC=O)C(=O)O; assay: purified protein; conditions: 1 mM NADP+, 100 mM potassium phosphate pH 7.6, room temperature, reverse (dehydrogenase) direction, apparent KM corrected to free GSA aldehyde/hydrate

| Substance | Km [1] [µM] | kcat [1] [s⁻¹] | kcat/Km [1] [M⁻¹ s⁻¹] | Km [2] [µM] | kcat [2] [s⁻¹] | kcat/Km [2] [M⁻¹ s⁻¹] |
| --- | --- | --- | --- | --- | --- | --- |
| Yersinia enterocolitica ProA (Yersinia enterocolitica subsp. enterocolitica 8081; E385A/S333G) | 52 ± 8 | 0.0037 | 73 | – | – | – |
| Yersinia enterocolitica ProA (Yersinia enterocolitica subsp. enterocolitica 8081; S333G) | 1200 ± 100 | 0.00012 | 0.095 | 56 ± 2 | 7.6 | 134000 |
